# Paper PMC12153356, “An antisense oligomer conjugate with unpredicted bactericidal activity against Fusobacterium nucleatum” (mBio, 2025)
# System: FNN23 transcriptome
# Experiment: RNA-seq transcriptomic response to CPP-PNA treatment
# Format: cell-based, Fusobacterium nucleatum subsp. nucleatum ATCC 23726
# Conditions: for Significant transcript changes vs water control: 30 min, log2 fold change < −1.5 or > 1.5, FDR ≤0.01
Substance,"Significant transcript changes vs water control (FNN23, 10 µM)","σE regulon (KEGG gene set enrichment) (FNN23, 10 µM FUS79 vs PNAscr, 16 h)","Differentially expressed transcripts, FUS79 vs PNAscr (FNN23, 10 µM, 16 h, 1 × 10^6 CFU per mL in MHB, log2 fold change <−1.5 or >1.5, FDR ≤0.01, three biological replicates)"
RXRRXRRXRRXRXB [PNAscr],do not induce significant changes,–,–
"(RXR)4XB-GACATAATTGT [FUS79, non-targeting (RXR)4XB-PNA 11-mer control, (RXR)4XB-…]",do not induce significant changes,strongly upregulated,82
